PubChem BioAssay AID1259414 – Drosophila RNAi Screening Center – 2018

Aim: 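Host factors increasing or decreasing Wolbachia levels in cultured fly cells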 (primary screen)
System: Drosophila JW18 cells infected with Wolbachia
Knock-down reagent: long dsRNA against Drosophila genes, 0.25 µg dsRNA per well of a 384-well plate
Time to read-out: 5 days
Treatment: cells persistently infected with Wolbachia before knock-down; no added drug
Read-out: 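Imaged fluorescence in situ signal for Wolbachia 23S rRNA per DAPI-counted host cell, given as a robust z-score within each plate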
Reading the numbers: Wolbachia per cell robust z: higher = more Wolbachia per host cell than the plate typical
Hit rule: 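Active if absolute robust z reaches 1.5 in two or more of three replicates, leaving out multi- or no-target dsRNAs, genes unexpressed in JW18 and A1 wells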
In all, the deposit lists about 24,000 reagents; below is an unselected part of those that have a named target and a result. In the full data, about 1,210 (5%) got an active call. 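Inactive calls also include excluded dsRNAs with several or no targets, genes unexpressed in JW18, and well A1, regardless of score.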 A number with no mark means an inactive call. No sequences are given here.

CG34332 [DRSC38705]
- Wolbachia per cell robust z, rep 1: -0.314
- Wolbachia per cell robust z, rep 2: 0.263
- Wolbachia per cell robust z, rep 3: 0.582

Sf3b5 [DRSC14460]
- Wolbachia per cell robust z, rep 1: 1.43 (active)
- Wolbachia per cell robust z, rep 2: 2.16
- Wolbachia per cell robust z, rep 3: 2.42

CG3558 [DRSC00615]
- Wolbachia per cell robust z, rep 1: 0.285
- Wolbachia per cell robust z, rep 2: 1.35
- Wolbachia per cell robust z, rep 3: 0.903

CG3558 [DRSC29745]
- Wolbachia per cell robust z, rep 1: -1.54
- Wolbachia per cell robust z, rep 2: 0.279
- Wolbachia per cell robust z, rep 3: -0.25

CG6678 [DRSC16092]
- Wolbachia per cell robust z, rep 1: -0.85
- Wolbachia per cell robust z, rep 2: 0.181
- Wolbachia per cell robust z, rep 3: 1.15

CG6678 [DRSC27398]
- Wolbachia per cell robust z, rep 1: -0.222
- Wolbachia per cell robust z, rep 2: -0.62
- Wolbachia per cell robust z, rep 3: -1.16

A portion from the list above, for reference:
CG34332 [DRSC38705]
- Wolbachia per cell robust z, rep 1: -0.314
- Wolbachia per cell robust z, rep 2: 0.263
- Wolbachia per cell robust z, rep 3: 0.582

Sf3b5 [DRSC14460]
- Wolbachia per cell robust z, rep 1: 1.43 (active)
- Wolbachia per cell robust z, rep 2: 2.16
- Wolbachia per cell robust z, rep 3: 2.42

Continued.
CG14230 [DRSC19586]
- Wolbachia per cell robust z, rep 1: 1.29
- Wolbachia per cell robust z, rep 2: 0.567
- Wolbachia per cell robust z, rep 3: 0.326

timeout [DRSC12950]
- Wolbachia per cell robust z, rep 1: -1.58
- Wolbachia per cell robust z, rep 2: 0.0264
- Wolbachia per cell robust z, rep 3: 0.335

timeout [DRSC17078]
- Wolbachia per cell robust z, rep 1: 1.03
- Wolbachia per cell robust z, rep 2: 0.841
- Wolbachia per cell robust z, rep 3: -2.45

timeout [DRSC17079]
- Wolbachia per cell robust z, rep 1: -0.46
- Wolbachia per cell robust z, rep 2: 0.305
- Wolbachia per cell robust z, rep 3: 0.157

timeout [DRSC17080]
- Wolbachia per cell robust z, rep 1: 0.626
- Wolbachia per cell robust z, rep 2: -0.383
- Wolbachia per cell robust z, rep 3: 1.2

timeout [DRSC17081]
- Wolbachia per cell robust z, rep 1: -0.671
- Wolbachia per cell robust z, rep 2: 0.327
- Wolbachia per cell robust z, rep 3: -0.55

timeout [DRSC21535]
- Wolbachia per cell robust z, rep 1: 0.747
- Wolbachia per cell robust z, rep 2: 0.444
- Wolbachia per cell robust z, rep 3: -0.896
